A mixed list of measured activities; the numbers were collected in NIAID ChemDB.

All rows: tests in culture; species: HIV-1

Conditions beyond the fields shown may differ between rows. ECn: concentration that inhibits the pathogen or its effect by n%. Blank or dashed fields: not listed here.

compound | strain | cells | method | endpoint | changes | value
CC(C)(C)NC(=O)[C@@H]1CN(Cc2cccnc2)CCN1C[C@H](C[C@@H](Cc1ccccc1)C(=O)N[C@H]1c2ccccc2C[C@H]1O)OC(=O)CCCCNC(=O)O[C@H]1[C@@H](C2COC(C)(C)O2)OC2OC(C)(C)O[C@H]21.O=C(O)C(F)(F)F.O=C(O)C(F)(F)F | LAI | CEM + CEM-SS | cytopathic effect / MTT | EC50 |  | 52 µM
Cc1c(OC(=O)CCCCOc2ccc(C[C@H](N)C(=O)O)cc2)cccc1C(=O)N[C@@H](CSc1ccccc1)[C@H](O)CN1C[C@H]2CCCC[C@H]2C[C@H]1C(=O)NC(C)(C)C | LAI | CEM + CEM-SS | RT activity | EC50 |  | 0.021 µM
Nc1ncc2[nH]cnc2n1 | IIIB | MOLT4 + MOLT-4 | p24 | EC50 |  | >612 µM
c1cc(CN2CCCNCCNCCCNCC2)ccc1CN1CCCNCCNCCCNCC1 | NL4-3 | MT-4 | MTT | EC50 |  | 0.001 µg/mL
CC(C)(C)NC(=O)[C@@H]1CN(Cc2cccnc2)CCN1C[C@@H](O)C[C@@H](Cc1ccccc1)C(=O)N[C@H]1c2ccccc2C[C@H]1OC(=O)CCCCO[C@@H]1[C@@H](O)[C@@H](O)O[C@H](CO)[C@H]1O | IIIB | MT-4 | cytopathic effect / MTT | EC50 |  | 0.19 µM
Cc1cn([C@H]2C[C@H](N=[N+]=[N-])[C@@H](CO)O2)c(=O)[nH]c1=O | IIIB | H9 | p24 | EC50 |  | 0.0239 µg/mL
CC(C)(C)NC(=O)[C@@H]1CN(Cc2cccnc2)CCN1C[C@H](C[C@@H](Cc1ccccc1)C(=O)N[C@H]1c2ccccc2C[C@H]1O)OC(=O)CCC(=O)O[C@H]1[C@@H](C2COC(C)(C)O2)OC2OC(C)(C)O[C@H]21 | LAI | CEM + CEM-SS | cytopathic effect / MTT | EC50 |  | 0.12 µM
Nc1nc(N)c2ncn([C@H]3CO[C@@H](CO)O3)c2n1 | IIIB | MT-4 |  | EC50 |  | 0.95 µM
Nc1nc(=O)n([C@H]2CO[C@@H](CO)S2)cc1F | HXB2D (RT-M184V) | PBMC | p24 | EC50 | RT-M184V | 2 µM
CCN(CC)C(=O)N1CCN(C(=O)N2CCOCC2)CC1 | NL4-3 | MT-4 | MTT | EC50 |  | >125 µg/mL
CC(C)(C)NC(=O)[C@@H]1CN(Cc2cccnc2)CCN1C[C@H](C[C@@H](Cc1ccccc1)C(=O)N[C@H]1c2ccccc2C[C@H]1OC(=O)CCCCO[C@H]1O[C@H](CO)[C@@H](O)[C@H](O)[C@@H]1O)OC(=O)CCCCO[C@H]1O[C@H](CO)[C@@H](O)[C@H](O)[C@@H]1O | IIIB | MT-4 | cytopathic effect / MTT | EC50 |  | 2.233 µM
CN(C)C(=O)N1CCN(C(=O)N2CCOCC2)CC1 | NL4-3 | MT-4 | MTT | EC50 |  | >125 µg/mL
O=S1(=O)NC(c2ccccc2)c2cccn2-c2ccc(Cl)cc21 | IIIB | MT-4 | cytopathic effect / MTT | EC50 |  | ≥200 µM
CC(C)(C)NC(=O)[C@@H]1CN(Cc2cccnc2)CCN1C[C@@H](O)C[C@@H](Cc1ccccc1)C(=O)N[C@H]1c2ccccc2C[C@H]1OC(=O)CCCCO[C@H]1O[C@H](CO)[C@@H](O)[C@H](O)[C@@H]1O | IIIB | MT-4 | cytopathic effect / MTT | EC50 |  | 0.263 µM
CC(C)(C)NC(=O)[C@@H]1CC2CCCCC2CN1C[C@@H](OC(=O)CC(=O)O[C@H]1[C@@H](C2COC(C)(C)O2)OC2OC(C)(C)O[C@H]21)[C@H](Cc1ccccc1)NC(=O)[C@H](CC(N)=O)NC(=O)c1ccc2ccccc2n1 | IIIB | MT-4 | cytopathic effect / MTT | EC50 |  | 0.041 µM
COc1cc([C@@H]2c3cc(O)c(O)cc3[C@H](O)[C@H]3COC(=O)[C@H]23)cc(OC)c1OC | IIIB | H9 | p24 | EC50 |  | 4.3 µg/mL
CC(C)(C)NC(=O)[C@@H]1C[C@@H]2CCCC[C@@H]2CN1C[C@@H](O)[C@H](Cc1ccccc1)NC(=O)[C@H](CC(N)=O)NC(=O)c1ccc2ccccc2n1 | LAI | CEM + CEM-SS | cytopathic effect / MTT | EC50 |  | 0.009 µM
C#CCN1C(=O)c2cccn2-c2ccc(Cl)cc2S1(=O)=O | IIIB | MT-4 | cytopathic effect / MTT | EC50 |  | >66.6 µM
Cc1c[nH]c(=O)[nH]c1=O | IIIB | MOLT4 + MOLT-4 | p24 | EC50 |  | >4000 µM
C[C@H](Cn1cnc2c(N)ncnc21)OCP(=O)(O)O | Clinical isolate DE434.4 | CEM | syncytia | EC50 | RT-K65R S68G T69I V75T Q151M | 80 µg/mL
CC(C)=CCN1C(=O)c2cccn2-c2ccc(Cl)cc2S1(=O)=O | IIIB | MT-4 | cytopathic effect / MTT | EC50 |  | 0.97 µM
Cc1c(N)nc(N)nc1OCCOCP(=O)(O)O | Clinical isolate L6.5 | CEM | syncytia | EC50 | RT-S68G K70T V75I F77L K103N F116Y Q151M K219R | 0.25 µg/mL
CC(=O)N1CCC(C(=O)N(CCCN2CCC(Cc3ccc(C(N)=O)cc3)CC2)c2ccc(C)c(Cl)c2)CC1 | SW X4 clinical isolate | PBMC | p24 | EC90 |  | >10 µM
CCCCOC(=O)N1CCN(C(=O)N(CC)CC)CC1 | NL4-3 | MT-4 | MTT | EC50 |  | >58.4 µg/mL
Nc1ccn([C@H]2CO[C@@H](CO)S2)c(=O)n1 | HXB2D (RT-K65R) | PBMC | p24 | EC50 | RT-K65R | 3.5 µM
C[C@H](COc1cc(N)nc(N)n1)OCP(=O)(O)O | Clinical isolate C20 | CEM | syncytia | EC50 | RT-M41L D67N V118I M184V L210W T215Y | 7 µg/mL
Nc1nc(=O)n([C@@H]2CO[C@H](CO)S2)cc1F | HXB2D | PBMC | p24 | EC50 |  | 3 µM
CC(C)(C)NC(=O)[C@@H]1C[C@@H]2CCCC[C@@H]2CN1C[C@@H](OC(=O)CCCCO[C@@H]1[C@@H](O)[C@@H](O)O[C@H](CO)[C@H]1O)[C@H](Cc1ccccc1)NC(=O)[C@H](CC(N)=O)NC(=O)c1ccc2ccccc2n1 | IIIB | MT-4 | cytopathic effect / MTT | EC50 |  | 0.062 µM
COc1cc([C@@H]2c3cc4c(cc3[C@@H](Nc3ccc(-c5nc6ccccc6[nH]5)cc3)[C@H]3COC(=O)[C@H]23)OCO4)cc(OC)c1O | IIIB | H9 | p24 | EC50 |  | <0.001 µg/mL
CN(C)C(=O)N1CCN(C(=O)N2CCCCC2)CC1 | NL4-3 | MT-4 | MTT | EC50 |  | >125 µg/mL
CCN1C2C(S(=O)(=O)c3ccc(C)cc3)=NCN2c2ccccc2S1(=O)=O | IIIB | MT-4 | cytopathic effect / MTT | EC50 |  | ≥200 µM
O=c1cc[nH]c(=O)[nH]1 | IIIB | MOLT4 + MOLT-4 | p24 | EC50 |  | >4000 µM
CC(C)(C)NC(=O)[C@@H]1C[C@@H]2CCCC[C@@H]2CN1C[C@@H](OC(=O)CCCCO[C@@H]1[C@@H](O)[C@@H](O)O[C@H](CO)[C@H]1O)[C@H](Cc1ccccc1)NC(=O)[C@H](CC(N)=O)NC(=O)c1ccc2ccccc2n1 | LAI | CEM + CEM-SS | RT activity | EC50 |  | <0.011 µM
CCN(CC)C(=O)N1CCN(C(=O)N2CCCC2)CC1 | NL4-3 | MT-4 | MTT | EC50 |  | >125 µg/mL
Nc1ncnc2c1ncn2CCOCP(=O)(O)O | Clinical isolate HA20.17 | CEM | syncytia | EC50 | RT-A62V V75I F77L Q151M M184V | 9 µg/mL
c1ncc2[nH]cnc2n1 | IIIB | MOLT4 + MOLT-4 | p24 | EC50 |  | >44 µM
Nc1ccn([C@@H]2CO[C@H](CO)S2)c(=O)n1 | HXB2D (RT-M184V) | PBMC | p24 | EC50 | RT-M184V | 0.53 µM

Repeating the first 4 entries:

compound	strain	cells	method	endpoint	changes	value
CC(C)(C)NC(=O)[C@@H]1CN(Cc2cccnc2)CCN1C[C@H](C[C@@H](Cc1ccccc1)C(=O)N[C@H]1c2ccccc2C[C@H]1O)OC(=O)CCCCNC(=O)O[C@H]1[C@@H](C2COC(C)(C)O2)OC2OC(C)(C)O[C@H]21.O=C(O)C(F)(F)F.O=C(O)C(F)(F)F	LAI	CEM + CEM-SS	cytopathic effect / MTT	EC50		52 µM
Cc1c(OC(=O)CCCCOc2ccc(C[C@H](N)C(=O)O)cc2)cccc1C(=O)N[C@@H](CSc1ccccc1)[C@H](O)CN1C[C@H]2CCCC[C@H]2C[C@H]1C(=O)NC(C)(C)C	LAI	CEM + CEM-SS	RT activity	EC50		0.021 µM
Nc1ncc2[nH]cnc2n1	IIIB	MOLT4 + MOLT-4	p24	EC50		>612 µM
c1cc(CN2CCCNCCNCCCNCC2)ccc1CN1CCCNCCNCCCNCC1	NL4-3	MT-4	MTT	EC50		0.001 µg/mL